Potato spindle tuber viroid, loop 15: variant abundance in plants

PSTVd intermediate strain, loop 15: wild type GGAAACCGCUACUAC, pool pattern GGAAACCGNNNNNNC; upper and lower strand joined, each 5' to 3', the first 7 letters being the upper strand, closing pairs included.

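Three N. benthamiana plants were inoculated with the whole mutant pool. Samples came from the inoculated region at 5 days, the leaf margin at 10 and upper systemic leaves at 12.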

Numbers give reads per thousand; 0 = not seen among the reads, higher = more abundant.
Each value is the mean of three plants.
"Pool" is the share in the plasmid pool used as inoculum, on the same scale.
The inoculated region was read from the minus strand, the other sites from the plus strand.
IR is the inoculated region, LM the leaf margin, Sys the systemic leaves.
The authors trace changes outside the varied positions to PCR and sequencing errors or to mutation in the plant; presence does not show that a variant is infectious alone.

sequence | pool | IR | LM | Sys
GGAAACCGUAUUUAC | 0.144 | 0.282 | 0.0967 | 0.0547
GGAAACCGCUUGUAC | 0.288 | 0.300 | 0.115 | 0.0695
GGAAACCGGAGAGGC | 0.240 | 0.0651 | 0.00668 | 0
GGAAACCGGUAUUGC | 0.192 | 0.301 | 0.0833 | 0.0107
GGAAACCGGCUUGUC | 0.272 | 0.104 | 0.0141 | 0.00537
GGAAACCGACGCCAC | 0.304 | 0.0858 | 0.0187 | 0
GGAAACCGGGCCCAC | 0.208 | 0.119 | 0 | 0
GGAAACCGUGAAUUC | 0.304 | 0.314 | 0.127 | 0.107
GGAAACCGUUCCGCC | 0.288 | 0.0930 | 0.0249 | 0
GGAAACCGAUCUGUC | 0.192 | 0.129 | 0.0269 | 0
GGAAACCGUUGGCUC | 0.144 | 0.0787 | 0.0128 | 0
GGAAACCGUUGAUCC | 0.336 | 0.121 | 0.00539 | 0
GGAAACCGCCAUGUC | 0.272 | 0.112 | 0.0141 | 0
GGAAACCGUACUCUC | 0.304 | 0.106 | 0.00539 | 0.00537
GGAAACCGCAUUAUC | 0.240 | 0.130 | 0 | 0
GGAAACCGAUCUCUC | 0.240 | 0.159 | 0 | 0.00537
GGAAACCGCCCCGGC | 0.288 | 0.0914 | 0 | 0
GGAAACCGGGCGGCC | 0.240 | 0.139 | 0.0121 | 0
GGAAACCGGACGAUC | 0.144 | 0.119 | 0.00539 | 0
GGAAACCGAGGGGAC | 0.192 | 0.0899 | 0.00668 | 0
GGAAACCGAGAAAGC | 0.256 | 0.285 | 0.0236 | 0
GGAAACCGUGAGUUC | 0.304 | 0.360 | 0.135 | 0.00537
GGAAACCGACGCAAC | 0.320 | 0.118 | 0.0202 | 0
GGAAACCGGUUGUGC | 0.176 | 0.142 | 0 | 0
GGAAACCGGCAAUAC | 0.256 | 0.408 | 0.102 | 0.0996
GGAAACCGCUCCGCC | 0.304 | 0.119 | 0.00742 | 0.00537
GGAAACCGUGGUGCC | 0.144 | 0.0694 | 0 | 0
GGAAACCGGUGAACC | 0.256 | 0.111 | 0.00668 | 0.00537
GGAAACCGGCUAAGC | 0.240 | 0.0946 | 0.0128 | 0.00537
GGAAACCGACUCCGC | 0.144 | 0.0678 | 0 | 0
GGAAACCGGUCGACC | 0.224 | 0.113 | 0 | 0
GGAAACCGAAAUUAC | 0.224 | 1.08 | 0.148 | 0.0915
GGAAACCGGCAACGC | 0.112 | 0.122 | 0.0175 | 0
GGAAACCGCUGCAAC | 0.192 | 0.101 | 0 | 0
GGAAACCGACCCCUC | 0.208 | 0.214 | 0 | 0.00537
GGAAACCGCGCUCUC | 0.240 | 0.0678 | 0.0187 | 0
GGAAACCGCAAGCCC | 0.272 | 0.0797 | 0.0382 | 0
GGAAACCGUUGCAGC | 0.176 | 0.116 | 0.00742 | 0
GGAAACCGUAUAGGC | 0.208 | 0.0297 | 0 | 0
GGAAACCGAUGGCAC | 0.0640 | 0.0751 | 0 | 0
GGAAACCGCUUUUGC | 0.320 | 0.114 | 0.00668 | 0
GGAAACCGAUACAGC | 0.256 | 0.0666 | 0.00668 | 0
GGAAACCGAGUUGCC | 0.208 | 0.0551 | 0.00742 | 0.00537
GGAAACCGCGGCUAC | 0.336 | 0.531 | 0.0967 | 0.0161
GGAAACCGAUAGGAC | 0.352 | 0.258 | 0.114 | 0.0752
GGAAACCGAGCCCGC | 0.224 | 0.0885 | 0.0121 | 0
GGAAACCGACUAAAC | 0.304 | 0.0945 | 0.0148 | 0
GGAAACCGGGGUCAC | 0.192 | 0.136 | 0.0141 | 0
GGAAACCGUUGAAGC | 0.256 | 0.110 | 0.0141 | 0
GGAAACCGUGACACC | 0.208 | 0.126 | 0.00668 | 0.00537
GGAAACCGUCUCGGC | 0.288 | 0.124 | 0.0290 | 0.00537

The first 5 entries again:

GGAAACCGUAUUUAC (pool 0.144) gave IR 0.282; LM 0.0967; Sys 0.0547.
GGAAACCGCUUGUAC (pool 0.288) gave IR 0.300; LM 0.115; Sys 0.0695.
GGAAACCGGAGAGGC (pool 0.240) gave IR 0.0651; LM 0.00668; Sys 0.
GGAAACCGGUAUUGC (pool 0.192) gave IR 0.301; LM 0.0833; Sys 0.0107.
GGAAACCGGCUUGUC (pool 0.272) gave IR 0.104; LM 0.0141; Sys 0.00537.

With 43,870-66,106 reads a sample, very low values are single reads.
Wild type was 33.9 per thousand in the pool and the most common sequence in every sample (inoculated region 202, 200, 159; leaf margin 724, 746, 710; systemic leaves 856, 883, 880).

Source: Wu et al. 2024 (doi:10.1371/journal.ppat.1012142), supplementary data.